Assay results from patent publication US20230040021A1 (priority 2019, published 2023).

Assays:
[1] = test system: HBcAg antigen-specific IFN-γ; test: ELISPOT of HBcAg antigen-specific IFN-γ secreted by spleen cells of immunized mice (Examples 2-4); type: in vivo, C57BL/6(N) mice; settings: CpG 10 μg/mouse alone with HBsAg 20 + HBcAg 10 μg/mouse; Day 7 after immunization; FIG. 2
[2] = test system: HBsAg antigen-specific IFN-γ; test: ELISPOT of HBsAg antigen-specific IFN-γ secreted by spleen cells of immunized mice (Examples 2-4); type: in vivo, C57BL/6(N) mice; settings: CpG 10 μg/mouse alone with HBsAg 20 + HBcAg 10 μg/mouse; Day 7 after immunization; FIG. 1

“TCC ATG ACG TTC CTG ATGCT (SEQ ID NO: 10)” was tested, and the “immune effect: induced production level of HBcAg-specific IFN-γ” value [1] was “lower than those induced by the CpG adjuvants of type A and the CpG adjuvants of type C” and the “immune effect: induced production level of HBsAg-specific IFN-γ” value [2] was “lower than those induced by the CpG adjuvants of type A and the CpG adjuvants of type C”.
